# PubChem BioAssay AID624099, ICCB-Longwood | 2012
# Test: 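Host factors E2 relies on to silence an HPV18 LCR reporter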 (primary screen)
# Cells: human C33A cervical carcinoma cells (HPV-negative) stably expressing BPV1 E2 and an HPV18 LCR luciferase reporter
# Reagent: siRNA pool against human genes, 40 nM
# Time to read-out: 72 h
# Measured: 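HPV18 LCR reporter light per well, converted to plate-wise z-scores that exclude control wells, and averaged over triplicate plates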
# Reading the numbers: mean z-score and z-score: higher = stronger reporter signal, weaker E2 silencing
# Rule for the call: 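Hit if mean z-score reaches 2 and two or more of three replicate z-scores also reach 2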
# In all, the deposit lists about 21,000 reagents; this is an unselected part. Over the whole deposit, 497 (2.4%) are marked active. 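Higher z means weaker E2 silencing; only reporter increases were scored, and knock-downs that hurt cell survival may mask genuine repressor factors.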 The numbers tell different reagents against one gene apart. No sequences are given here.
The first 3 entries, to show the layout:
gene,reagent no.,mean z-score,"z-score, replicate A","z-score, replicate B","z-score, replicate C",Call
EFNA1 (ephrin A1),1,-0.25,-0.24,-0.17,-0.35,inactive
ME1 (malic enzyme 1),1,0.52,0.89,0.28,0.39,inactive
PKP4 (plakophilin 4),1,2.15,2.28,2.25,1.92,active

Main list, from the start:
gene,reagent no.,mean z-score,"z-score, replicate A","z-score, replicate B","z-score, replicate C",Call
EFNA1 (ephrin A1),1,-0.25,-0.24,-0.17,-0.35,inactive
ME1 (malic enzyme 1),1,0.52,0.89,0.28,0.39,inactive
PKP4 (plakophilin 4),1,2.15,2.28,2.25,1.92,active
OR4C11 (olfactory receptor family 4 subfamily C member 11),1,0.72,0.47,0.85,0.84,inactive
DYDC1 (DPY30 domain containing 1),1,0.24,-0.13,0.02,0.83,inactive
WDR43 (WD repeat domain 43),1,-1.89,-1.78,-1.98,-1.9,inactive
LDHAL6A (lactate dehydrogenase A like 6A),1,-1.06,-1.55,-0.79,-0.86,inactive
ZNF558 (zinc finger protein 558),1,1.07,1.18,1.06,0.96,inactive
PRDX2 (peroxiredoxin 2),1,0.39,0.25,0.37,0.55,inactive
ACAN (aggrecan),1,0.35,-0.27,0.69,0.64,inactive
TRIM13 (tripartite motif containing 13),1,0.92,0.55,1.14,1.08,inactive
CIBAR1P1 (CIBAR1 pseudogene 1),1,0.62,0.7,0.73,0.44,inactive
ABLIM3 (actin binding LIM protein family member 3),1,0.75,1.02,0.57,0.66,inactive
CFAP65 (cilia and flagella associated protein 65),1,-0.11,0.19,-0.46,-0.05,inactive
CFAP65 (cilia and flagella associated protein 65),2,-0.92,-0.13,-1.33,-1.3,inactive
JAKMIP1-DT (JAKMIP1 divergent transcript),1,-0.39,-0.36,-0.46,-0.37,inactive
ITPK1 (inositol-tetrakisphosphate 1-kinase),1,-0.5,-0.57,-0.38,-0.56,inactive
CSMD3 (CUB and Sushi multiple domains 3),1,-0.07,-0.11,-0.37,0.29,inactive
LAMB2 (laminin subunit beta 2),1,-0.13,-0.23,-0.17,0,inactive
ODR4 (odr-4 GPCR localization factor homolog),1,0.79,0.92,1.01,0.44,inactive
TRIM74 (tripartite motif containing 74),1,-0.3,0.16,-0.61,-0.46,inactive
HDIP1 (HDAC and MIER1 interacting protein 1),1,0.07,-0.08,-0.03,0.32,inactive
VHL (von Hippel-Lindau tumor suppressor),1,0.09,-0.08,0.09,0.26,inactive
BAP1 (BRCA1 associated deubiquitinase 1),1,0.41,0.49,0.54,0.21,inactive
TSPAN12 (tetraspanin 12),1,-0.11,-0.49,0,0.15,inactive
GPI (glucose-6-phosphate isomerase),1,-0.45,-0.27,-0.47,-0.61,inactive
ANKRD33 (ankyrin repeat domain 33),1,0.66,0.72,0.62,0.66,inactive
"HLA-DOA (major histocompatibility complex, class II, DO alpha)",1,-0.66,-0.98,-0.17,-0.84,inactive
MNX1 (motor neuron and pancreas homeobox 1),1,-0.21,0.26,-0.49,-0.41,inactive
LOC402494 (retired record),1,0.99,1.05,1.24,0.69,inactive
IL17F (interleukin 17F),1,-0.13,0.18,-0.41,-0.16,inactive
ACSM6 (acyl-CoA synthetase medium chain family member 6),1,1.31,0.93,0.36,2.63,inactive
HCFC2 (host cell factor C2),1,-1.39,-1.51,-1.18,-1.48,inactive
"BCAR3 (BCAR3 adaptor protein, NSP family member)",1,-0.5,-0.25,-0.94,-0.31,inactive
FERMT2 (FERM domain containing kindlin 2),1,0.97,0.94,0.85,1.12,inactive
NOTCH2 (notch receptor 2),1,0.03,0.17,-0.09,0.02,inactive
SLC9A1,1,-0.35,-0.29,-0.35,-0.42,inactive
KCNN2 (potassium calcium-activated channel subfamily N member 2),1,-0.72,-0.64,-0.89,-0.62,inactive
SPIN4 (spindlin family member 4),1,-0.59,-0.85,-0.46,-0.47,inactive
ATAD2B (ATPase family AAA domain containing 2B),1,-0.05,-0.22,-0.01,0.07,inactive
FOXR2 (forkhead box R2),1,-0.49,-0.6,-0.36,-0.51,inactive
PLA2G12A (phospholipase A2 group XIIA),1,1.67,2.34,1.02,1.66,inactive
BTNL3 (butyrophilin like 3),1,0.58,0.72,0.7,0.32,inactive
SERPINA11 (serpin family A member 11),1,-1.02,-1.03,-0.79,-1.24,inactive
LINC02789 (long independently transcribed non-coding RNA 2789),1,0.47,0.66,0.67,0.08,inactive
DYNLRB2 (dynein light chain roadblock-type 2),1,0.79,0.91,0.67,0.78,inactive
PLPP6 (phospholipid phosphatase 6),1,-0.13,-0.37,-0.21,0.2,inactive
PLEKHA8 (pleckstrin homology domain containing A8),1,0.44,0.72,0.09,0.52,inactive
ENTPD1 (ectonucleoside triphosphate diphosphohydrolase 1),1,1.34,1.46,1.25,1.32,inactive
CHRNA7 (cholinergic receptor nicotinic alpha 7 subunit),1,-0.28,-0.24,-0.26,-0.32,inactive
ZNF430 (zinc finger protein 430),1,-0.21,-0.08,-0.1,-0.45,inactive
MTFR1 (mitochondrial fission regulator 1),1,-0.47,-0.53,-0.38,-0.49,inactive
MROH9 (maestro heat like repeat family member 9),1,-0.03,-0.03,-0.11,0.06,inactive
GCN1 (GCN1 activator of EIF2AK4),1,-0.69,-0.54,-0.83,-0.7,inactive
MYO1D (myosin ID),1,0.2,0.35,0.1,0.14,inactive
CACNA1G-AS1 (CACNA1G antisense RNA 1),1,-0.85,-0.73,-0.89,-0.93,inactive
LOC401054 (retired record),1,0.24,0.72,0.1,-0.09,inactive
